Tests used:
[1] = test system: P. aeruginosa strain PA01; assay: P. aeruginosa-induced cytotoxicity of A549 cells (LDH release); conditions: 5.5 hours
[2] = test system: P. aeruginosa strain PA14; assay: as above; conditions: Pseudomonas aeruginosa, PA14, A549, in Homo sapiens, 5.5 h, read-out: reduction of cytotoxicity induced by P. aeruginosa strain PA14

CCCCCCc1cc2cc(-c3nnc(-c4ccc(C)cc4)o3)c(=O)oc2cc1O [BFA1, 6-HEXYL-7-HYDROXY-3-[5-(4-METHYLPHENYL)-1,3,4-OXADIAZOL-2-YL]-2H-CHROMEN-2-ONE]
inhibition of cytotoxicity induced by P. aeruginosa strain PA01 [1]: able to inhibit the cytotoxicity induced by P. aeruginosa strain PA01 | inhibition at 12.5 µM [2]: ~50% | inhibition at 25 µM [2]: ~80%
